From PubChem BioAssay AID540276 (National Center for Advancing Translational Sciences (NCATS), 2011)
The list shows a part of the results, in another mix than the full data. Records with an inconclusive call do not appear. Activity calls are given as the source filed them. The call rests on the fitted dose curve; tested in HEK293 cells.

Assay: qHTS for inhibitors of binding or entry into cells for Marburg Virus
Conditions: Marburg virus pseudotyped entry inhibition, cell reporter
Potency means the concentration at half of the fitted maximal effect.

**Q.** With N#C/C(=C\c1ccc(N(CCBr)CCBr)cc1)C(N)=O as the molecule, how does the Potency read?
**A.** active: 4.47 µM

**Q.** With CN(C(=O)Cc1ccc(Cl)c(Cl)c1)[C@@H]1CC[C@]2(CCCO2)C[C@H]1N1CCCC1 as the molecule, how does the Potency read?
**A.** active: 14.1 µM
